Compound potency records, mixed from different reports. Data source: NIAID ChemDB in PubChem.

Shared fields: growth or infection tests; species: HIV-2; cell line: MT-2; endpoint: EC50

Blank or dashed fields: not listed here. ECn: concentration that inhibits the pathogen or its effect by n%. Neighbouring rows are from separate reports.

SMILES,strain or isolate,read by,value
Cc1c(O)cccc1C(=O)N[C@@H](CSc1ccccc1)[C@H](O)CN1C[C@H]2CCCC[C@H]2C[C@H]1C(=O)NC(C)(C)C,EHO Laboratory isolate,cytopathic effect / MTT,0.02 µM
O=C1N(Cc2ccc(CO)cc2)[C@H](Cc2ccccc2)[C@H](O)[C@@H](O)[C@@H](Cc2ccccc2)N1Cc1ccc(CO)cc1,ROD,virus yield,<0.05 µM
COC(=O)[C@H](C)NP(=O)(OCC1C/C1=C/n1cnc2c(N)ncnc21)Oc1ccccc1,ROD,p24,0.03 µM
COc1ccc(S(=O)(=O)N(CC(C)C)C[C@@H](O)[C@H](Cc2ccccc2)NC(=O)O[C@H]2CO[C@@H]3O[C@H]4OCC[C@H]4[C@@H]32)cc1,ROD,MTT,0.4 µM
Cc1cn([C@H]2C[C@H](N=[N+]=[N-])[C@@H](CO)O2)c(=O)[nH]c1=O,EHO Laboratory isolate,cytopathic effect / MTT,0.003 µM
Cc1cn([C@H]2C[C@H](N=[N+]=[N-])[C@@H](CO)O2)c(=O)[nH]c1=O,ROD,-,0.018 µM
CC1=C(C(=O)Nc2ccc(Cl)c(C(=O)OC(C)C)c2)SCCO1,NIH-D2,-,>200 µM
CC(C)CN(C[C@@H](O)[C@H](Cc1ccccc1)NC(=O)O[C@H]1CCOC1)S(=O)(=O)c1ccc(N)cc1,ROD,MTT,0.44 µM
COc1ccc(S(=O)(=O)N(CC(C)C)C[C@@H](O)[C@H](Cc2ccc(F)cc2)NC(=O)O[C@H]2CCO[C@H]3OCC[C@H]32)cc1,ROD,MTT,0.05 µM
CC(C)CN(C[C@@H](O)[C@H](Cc1ccccc1)NC(=O)[C@@H](NC(=O)CNCc1cccc(F)c1)C(C)(C)C)S(=O)(=O)c1cccc(N)c1,-,virus yield,<0.01 µM
COc1ccc(S(=O)(=O)N(CC(C)C)C[C@@H](O)[C@H](Cc2ccccc2)NC(=O)O[C@H]2CO[C@H]3O[C@@H]4OCC[C@@H]4[C@H]32)cc1,ROD,MTT,0.0004 µM
O=C1N(Cc2ccc(CO)cc2)[C@H](Cc2ccccc2)[C@H](O)[C@@H](O)[C@@H](Cc2ccccc2)N1Cc1ccc(CO)cc1,ROD,-,<0.05 µM
CNC(C)[C@H]1O[C@H](O[C@@H]2[C@@H](O)[C@H](O[C@@H]3OC[C@@](C)(O)[C@@H](NC)[C@@H]3O)[C@@H](NC(=O)[C@@H](N)CCCN=C(N)N)C[C@H]2NC(=O)[C@@H](N)CCCN=C(N)N)[C@H](NC(=O)[C@@H](N)CCCN=C(N)N)[C@@H](O)[C@@H]1O,CLADE C,syncytia,4.5 µM
CC(C)c1cc2c(c(O)c1O)[C@@]1(C(=O)O)CCCC(C)(C)C1CC2,EHO,-,0.011 µM
COc1ccc(S(=O)(=O)N(CC(C)C)C[C@@H](O)[C@H](Cc2cc(F)cc(F)c2)NC(=O)O[C@H]2CO[C@H]3OCC[C@H]32)cc1,ROD,MTT,0.0002 µM
CC(C)(C)NC(=O)[C@@H]1C[C@@H]2CCCC[C@@H]2CN1C[C@@H](O)[C@H](Cc1ccccc1)NC(=O)[C@H](CC(N)=O)NC(=O)c1ccc2ccccc2n1,EHO Laboratory isolate,cytopathic effect / MTT,0.004 µM

For reference, 2 entries again:

SMILES | strain or isolate | read by | value
CC(C)CN(C[C@@H](O)[C@H](Cc1ccccc1)NC(=O)O[C@H]1CCOC1)S(=O)(=O)c1ccc(N)cc1 | ROD | MTT | 0.44 µM
O=C1N(Cc2ccc(CO)cc2)[C@H](Cc2ccccc2)[C@H](O)[C@@H](O)[C@@H](Cc2ccccc2)N1Cc1ccc(CO)cc1 | ROD | virus yield | <0.05 µM